Measured values from several laboratories, pooled; numbers as filed in NIAID ChemDB.

Shared fields: whole-cell or culture tests; agent: HIV-1

ECn: concentration that inhibits the pathogen or its effect by n%. Conditions beyond the fields shown may differ between rows. Blank or dashed fields: not listed here.

SMILES	read-out	read by	cell line	mutations	strain	setting	value
CCCc1cc(=O)oc2c3c(c4c(c12)OC(C)(C)CC4)O[C@@H](C)[C@H](C)[C@@H]3O	EC50	XTT	CEM + CEM-SS		IIIB		0.2 µM
CCN(C(=O)C(=O)N(C)C)[C@@H]1CC[C@H](OC)Cn2c1nc(C(=O)NCc1ccc(F)cc1)c(O)c2=O	EC50	single cycle	HeLa P4-2	Y143R			0.003 µM
CC(=O)N[C@H]1CSSC[C@@H](C(=O)N[C@@H](Cc2ccc(O)cc2)C(=O)O)NC(=O)[C@H](CCCCN)NC(=O)[C@H](CC(N)=O)NC1=O	EC50	RT activity	MT-4		NL4-3	6 d	>2.5 µM
O=C1Nc2ccc(Cl)cc2C(OCC2CC2)(C(F)(F)F)O1	EC50			RT-K103N			<0.989 µM
COC(=O)N[C@H](C(=O)N[C@@H](Cc1ccccc1)C[C@H](O)[C@H](Cc1ccc(-c2ccc(C#N)nc2)cc1)NC[C@@H](NC(=O)OC)C(C)(C)C)C(C)(C)C	EC50	MTT	MT-4		pNL4-3		6 nM
CCOC(=O)[C@H](C)NP(=O)(OC[C@@H]1OC[C@H](n2cnc3c(OC)nc(N)nc32)O1)Oc1ccccc1	EC90	RT activity	PBMC		LAI		0.02 µM
CC(C)(C)C(=O)SCCOP(=O)(OCCSC(=O)C(C)(C)C)OC[C@H]1CC[C@@H](n2cnc3c(N)ncnc32)O1	EC50		PBMC		LAV		0.002 µM
COc1ccnc(Nc2ccc(C#N)c(Sc3cccc(C)c3)c2)n1	EC50	MTT	MT-2		IIIB		0.062 µM
O=C(Oc1ccc2c(c1OC(=O)c1ccccc1)C(=O)c1ccccc1C2=O)c1ccccc1	EC50	cytopathic effect	MT-2				>100 µM
Cc1cn([C@H]2C[C@H](N=[N+]=[N-])[C@@H](CO)O2)c(=O)[nH]c1=O	EC50	RT activity	MT-4		NL4-3	6 d	<1 µM
COc1ccc2c(c1)N(C(=O)OC(C)C)[C@@H](CSC)C(=S)N2	EC50	p24	PBMC		MN: RS(HBY 097)		>10 µM
COC(=O)N[C@H](C(=O)N[C@@H](Cc1ccccc1)C[C@H](O)[C@H](Cc1ccc(-c2ccncc2)cc1)NC[C@@H](NC(=O)OC)C(C)(C)C)C(C)(C)C	EC50	MTT	MT-4		pNL4-3		13 nM
CN1CCN(c2cc(-c3ccccc3)nc3ccccc23)CC1	EC50	p24	PHA-PBMC + PBMC		LAV		34.8 µM
O=[N+]([O-])c1ccc(/C=N/Nc2ccnc3c(C(F)(F)F)cc(Cl)cc23)o1	EC50	cytopathic effect / MTT	MT-2		RF		0.0243 µg/mL
C=C(C)[C@@H]1CC[C@]2(NCCN3CCN(C(=O)c4ccccc4)CC3)CC[C@]3(C)[C@H](CC[C@@H]4[C@@]5(C)CC[C@H](OC(=O)[C@H]6C[C@@H](C(=O)O)C6(C)C)C(C)(C)[C@@H]5CC[C@]43C)[C@@H]12	EC50	p24 / ELISA	MT-2		92HT599		≤0.01 µM
C=C1[C@H](n2cc(C)c(=O)[nH]c2=O)O[C@H](CO)[C@H]1O	EC50	cytopathic effect / MTT	MT-2				>100 µM
N#Cc1ccc(Nc2nccc(C3CC3)n2)cc1Oc1cc(F)cc(F)c1	EC50	MTT	MT-2		IIIB		0.78 µM
CC(C)CN(C[C@@H](O)[C@H](Cc1ccccc1)NC(=O)O[C@H]1CO[C@H]2OCC[C@H]21)S(=O)(=O)c1ccc2[nH]c(O)c(C=NCc3nc4ccccc4[nH]3)c2c1	EC50	MTT	MT-4		HXB2		>0.4 µM
COC(=O)N[C@H](C(=O)N[C@@H](Cc1ccccc1)C[C@H](O)[C@H](Cc1ccc(-c2ccnc(F)c2)cc1)NC[C@@H](NC(=O)OC)C(C)(C)C)C(C)(C)C	EC50	MTT	MT-4		pNL4-3		2 nM
Cn1cc(C(=O)O)c(=O)c2cc(F)c(N3CC=C(c4ccccc4)CC3)c(C(F)(F)F)c21	EC50	p24	CEM		IIIB		0.15 µM
CC(C)(C)NC(=O)[C@@H]1CN(Cc2cccnc2)CCN1C[C@H](O)[C@@H](CSc1ccccc1)NC(=O)c1cccc2ncccc12	EC50	cytopathic effect / XTT	CEM		SN 123		0.149 µM
Cc1ccc(C)n1-c1ccc(C(=O)O)c(O)c1	EC90	luciferase / cell fusion	PBMC/5.25M7		SF162 R5 CLADE B		69.65 µM
CC(C)(C)c1ccccc1Sc1c(O)cc(-c2ccc(OCc3cccnc3)cc2)oc1=O	EC50	RT activity	CEM				>100 µM
CC(=O)Oc1c(OCC(=O)c2ccccc2)ccc2c1C(=O)c1ccccc1C2=O	EC50	cytopathic effect	MT-2				>100 µM
CC(C)(C)NC(=O)[C@@H]1C[C@@H]2CCCC[C@@H]2CN1C[C@H](O)[C@H](Cc1ccccc1)NC(=O)c1c(Cl)ccc(O)c1Cl	EC50	cytopathic effect / MTT	CEM		IIIB		2.7 µg/mL
O=C1Nc2ccc(F)cc2C(C#Cc2ccco2)(C(F)(F)F)O1	EC50			RT-K103N			<0.3293 µM
CC(C)(C)NC(=O)[C@@H]1C[C@@H]2CCCC[C@@H]2CN1C[C@H](O)[C@H](Cc1ccccc1)NC(=O)c1cccc(Cl)c1Cl	EC50	cytopathic effect / MTT	CEM		IIIB		1.895 µg/mL
C=C(C)[C@@H]1CC[C@]2(NCCN3CCN(S(=O)(=O)c4ccccc4)CC3)CC[C@]3(C)[C@H](CC[C@@H]4[C@@]5(C)CC[C@H](OC(=O)[C@H]6C[C@@H](C(=O)O)C6(C)C)C(C)(C)[C@@H]5CC[C@]43C)[C@@H]12	EC50	p24 / ELISA	MT-2		92HT599		≤0.01 µM
Cc1cc(C)cc(S(=O)(=O)c2c(C(N)=O)[nH]c3ccc(Cl)cc23)c1	EC50		CEM	WT	IIIB		>10 µM
CCc1ccnc(Nc2ccc(C#N)c(Oc3cccc(/C=C/C#N)c3)c2)n1	EC50	MTT	MT-2		IIIB		0.048 µM
C=C1[C@H](O)[C@@H](CO)O[C@@H]1n1cnc2c(=O)[nH]c(N)cc21	EC50	cytopathic effect / MTT	MT-2				>100 µM
Nc1ccn([C@@H]2C[C@H](CO)CO2)c(=O)n1	EC50						>100 µM
Cc1c(C)n(COCCOc2ccc(Cl)cc2)c(=O)[nH]c1=O	EC50	cytopathic effect	CEM + CEM-SS				>100 µM
O=C(O)/C=C/c1ccc2c(c1)c(=O)c(/C(O)=C/C(=O)C(=O)O)cn2Cc1ccc(F)cc1	EC50	p24	TZM-bl		NL4-3		5 µM
NCC(NC(=O)c1ccc(-c2ccc(C(F)(F)F)c(F)c2)[nH]1)c1nc(CO)cs1	EC90	p24 / ELISA	PBMC		NL4-3		>10 µM
N#C/C=C/c1cccc(Oc2cc(Nc3ncnc(C4CC4)n3)ccc2C#N)c1	EC50	MTT	MT-2		IIIB		0.021 µM
CC1([C@@H]2CC[C@]3(NCCN4CCS(=O)(=O)CC4)CC[C@]4(C)[C@H](CC[C@@H]5[C@@]6(C)CC[C@H](OC(=O)[C@H]7C[C@@H](C(=O)O)C7(C)C)C(C)(C)[C@@H]6CC[C@]54C)[C@@H]23)CC1	EC50	p24 / ELISA	MT-2		92HT599		≤0.01 µM
CCOC(=O)[C@H](C)NP(=O)(OC[C@@H]1OC[C@H](n2cnc3c(=O)[nH]c(N)nc32)O1)Oc1ccccc1	EC90	RT activity	PBMC		LAI		1.2 µM
Cc1c(NS(C)(=O)=O)cccc1C(=O)N[C@@H](Cc1ccccc1)[C@@H](O)CN1C[C@H]2CCCC[C@H]2C[C@H]1C(=O)NC(C)(C)C	EC50	cytopathic effect / MTT	MT-2		RF		2.085 µg/mL
CC#C[C@]1(O)CC[C@H]2[C@@H]3CCC4=CC(=O)CCC4=C3[C@@H](c3ccc(N(C)C)cc3)C[C@@]21C	EC50	p24 / GFP	CEMx174		NL4-3		0.5 µM
CSc1ccnc(Nc2ccc(C#N)c(Oc3cccc(/C=C/C#N)c3)c2)n1	EC50	MTT	MT-2		IIIB		0.048 µM
C=C(C)[C@@H]1CC[C@]2(NCCN3CCN(S(C)(=O)=O)CC3)CC[C@]3(C)[C@H](CC[C@@H]4[C@@]5(C)CC[C@H](OC(=O)[C@H]6C[C@@H](C(=O)O)C6(C)C)C(C)(C)[C@@H]5CC[C@]43C)[C@@H]12	EC50	p24 / ELISA	MT-2		92HT599		≤0.01 µM
CN1C(=O)[C@]2(C[C@@H]2c2ccccc2)c2cc(Cl)ccc21	EC50	MTT	MT-4		IIIB		>10.24 µg/mL
Nc1ccn([C@H]2CC[C@@H](CO)O2)c(=O)n1	EC50	β-galactosidase		H132Y	NL4-3		0.394 µM
O=c1ccn(COCCOc2ccc(Cl)cc2)c(=O)[nH]1	EC50	cytopathic effect	CEM + CEM-SS				23.7 µM
C=C(C)[C@@H]1CC[C@]2(NCCN3CCN(S(=O)(=O)Cc4ccccc4)CC3)CC[C@]3(C)[C@H](CC[C@@H]4[C@@]5(C)CC[C@H](OC(=O)[C@H]6C[C@@H](C(=O)O)C6(C)C)C(C)(C)[C@@H]5CC[C@]43C)[C@@H]12	EC50	p24 / ELISA	MT-2		92HT599		≤0.01 µM
O=c1ccn([C@H]2C[C@H](CO)CO2)c(=O)[nH]1	EC50						>100 µM
O=c1oc(-c2ccc(OCc3ccccn3)cc2)cc(O)c1SCCc1ccccc1	EC50	RT activity	H9				2.3 µM
C=C1[C@H](O)[C@@H](CO)O[C@@H]1n1cnc(N)nc1=O	EC50	cytopathic effect / MTT	MT-2				>100 µM
Nc1nc(Cl)c2ncn([C@@H]3O[C@H](CO)C[C@@H]3F)c2n1	EC50	XTT	CEM		LAI		>50 µM
COC(=O)N[C@H](C(=O)N[C@@H](Cc1ccccc1)C[C@H](O)[C@H](Cc1ccc(-c2ccc(OC)cc2)cc1)NC[C@@H](NC(=O)OC)C(C)(C)C)C(C)(C)C	EC50	MTT	MT-4		pNL4-3		1 nM
O=C1Nc2ccc(F)c(F)c2C(C#Cc2ccccn2)(C(F)(F)F)O1	EC50			RT-K103N			<0.193 µM
Cc1cc(CNC(=O)c2nc3n(c(=O)c2O)[C@H](C)COC[C@H]3N(C)C(=O)C(=O)N(C)C)ccc1F	EC50	single cycle	HeLa P4-2	Q148R			0.009 µM
O=C1Nc2ccc(F)c(F)c2C(C#Cc2ccsc2)(C(F)(F)F)O1	EC50			RT-K103N			<0.1559 µM
COC(=O)N[C@H](C(=O)N[C@@H](Cc1ccccc1)C[C@H](O)[C@H](Cc1ccc(-c2cccc(CO)c2)cc1)NC[C@@H](NC(=O)OC)C(C)(C)C)C(C)(C)C	EC50	MTT	MT-4		pNL4-3		21 nM
Nc1ncn([C@H]2C[C@H](O)[C@@H](CO)O2)c(=O)n1	EC50		MT-2		LAI		0.003 µM
COc1ccnc(Nc2ccc(C#N)c(Oc3cccc(/C=C/C#N)c3)c2)n1	EC50	MTT	MT-2		IIIB		0.26 µM
CCOC(=O)[C@H](C)NP(=O)(OC[C@@H]1OC[C@H](n2cnc3c(N)nc(N)nc32)O1)Oc1ccccc1	EC50	RT activity	PBMC		LAI		0.3 µM
Cc1cc(=O)[nH]c(=O)n1COCCOc1ccc(Cl)cc1	EC50	cytopathic effect	CEM + CEM-SS				>100 µM
N#C/C=C/c1cccc(Oc2cc(Nc3nccc(C4CC4)n3)ccc2C#N)c1	EC50	MTT	MT-2		IIIB		0.032 µM
Nc1nc(N)c2ncn([C@H]3CO[C@@H](CO)O3)c2n1	EC50	RT activity	PBMC		LAI		0.4 µM
C/C=C\COC1(C(F)(F)F)OC(=O)Nc2ccc(Cl)cc21	EC50			RT-K103N			<0.237 µM
COC(=O)N[C@H](C(=O)N[C@@H](Cc1ccccc1)C[C@H](O)[C@H](Cc1ccc(-c2cncc(F)c2)cc1)NC[C@@H](NC(=O)OC)C(C)(C)C)C(C)(C)C	EC50	MTT	MT-4		pNL4-3	50% human serum	24 nM
Cc1ccc([C@H]2C[C@]23C(=O)N(C)c2ccccc23)cc1	EC50	MTT	MT-4		IIIB		>0.39 µg/mL
COc1ccnc(Nc2ccc(C#N)c(Oc3cccc(Cl)c3)c2)n1	EC50	MTT	MT-2		IIIB		0.64 µM
CC(C)CCC[C@@H](C)[C@H]1CC[C@H]2[C@@H]3CC[C@H]4C[C@@H](CCC=C(c5cc(Cl)c(OCc6ccc(C(=O)O)cc6)c(C(=O)O)c5)c5cc(Cl)c(OCc6ccc(C(=O)O)cc6)c(C(=O)O)c5)CC[C@]4(C)[C@H]3CC[C@]12C	EC50	cytopathic effect / MTT	MT-4		IIIB		1.4 µM
CC(C)(C)NC(=O)[C@@H]1C[C@@H]2CCCC[C@@H]2CN1C[C@@H](O)[C@H](Cc1ccccc1)NC(=O)c1cccc(O)c1F	EC50	cytopathic effect / MTT	CEM		IIIB		1.19 µg/mL
Cc1ccc(OCCOCn2cc(C)c(=O)[nH]c2=O)cc1	EC50	cytopathic effect	CEM + CEM-SS				>100 µM
CC[C@H]1COC[C@H](N(C)C(=O)C(=O)N(C)C)c2nc(C(=O)NCc3ccc(F)cc3)c(O)c(=O)n21	EC50	single cycle	HeLa P4-2	G140S/Q148H			0.011 µM

The last 4 rows once more:

SMILES | read-out | read by | cell line | mutations | strain | setting | value
CC(C)CCC[C@@H](C)[C@H]1CC[C@H]2[C@@H]3CC[C@H]4C[C@@H](CCC=C(c5cc(Cl)c(OCc6ccc(C(=O)O)cc6)c(C(=O)O)c5)c5cc(Cl)c(OCc6ccc(C(=O)O)cc6)c(C(=O)O)c5)CC[C@]4(C)[C@H]3CC[C@]12C | EC50 | cytopathic effect / MTT | MT-4 |  | IIIB |  | 1.4 µM
CC(C)(C)NC(=O)[C@@H]1C[C@@H]2CCCC[C@@H]2CN1C[C@@H](O)[C@H](Cc1ccccc1)NC(=O)c1cccc(O)c1F | EC50 | cytopathic effect / MTT | CEM |  | IIIB |  | 1.19 µg/mL
Cc1ccc(OCCOCn2cc(C)c(=O)[nH]c2=O)cc1 | EC50 | cytopathic effect | CEM + CEM-SS |  |  |  | >100 µM
CC[C@H]1COC[C@H](N(C)C(=O)C(=O)N(C)C)c2nc(C(=O)NCc3ccc(F)cc3)c(O)c(=O)n21 | EC50 | single cycle | HeLa P4-2 | G140S/Q148H |  |  | 0.011 µM